In patent publication US20090311265A1 (CRUCELL HOLLAND B V, published 2009):

B1: CR6257 (antibody, V domains shown)
VH: QVQLVQSGAEVKKPGSSVKVSCKASGGPFRSYAISWVRQAPGQGPEWMGGIIPIFGTTKYAPKFQGRVTITADDFAGTVYMELSSLRSEDTAMYYCAKHMGYQVRETMDVWGKGTTVTVSS
VL: QSALTQPAAVSGSPGQSITISCTGTSSDVGGYNYVSWYQQHPGKAPKLMIYEVSNRPSGVSNRFSGSKSGNTASLTISGLQAEDEADYYCSSYTSSSTYVFGTGTKVTVLG
B2: CR6262 (antibody, V domains shown)
VH: QVQLQQSGAEVKKPGSSVKVSCKVSGVIFSGSAISWVRQAPGQGLEWMGGISPLFGTTNYAQKFQGRVTITADQSTNTTYMEVNSLRYEDTAVYFCARGPKYYSEYMDVWGKGTTVTVSS
VL: DIQMTQSPSSLSASVGDRVTITCRASQGISSYLAWYQQKPGKVPTLLIYDASTLRSGVPSRFSGSGSATDFTLTISSLQPEDVATYYCQRYNSAPPITFGQGTRLEIKR
B3: CR6268 (antibody, V domains shown)
VH: QVQLVQSGAEVKKPGSSVKVSCKASGGTFSSYAISWVRQAPGQGLEWMGGIMGMFGTTNYAQKFQGRVTITADEFTSAAYMELRSLRSEDTAVYYCARSSGYYPEYFQDWGQGTLVTVSS
VL: QSVLTQPPSESVSPGQTASVTCSGHKLGDKYVSWYQQKPGQSPVLLIYQDNRRPSGIPERFIGSNSGNTATLTISGTQALDEADYYCQAWDSSTAVFGGGTKLTVLG
B4: CR6272 (antibody, V domains shown)
VH: QMQLVQSGAEVKKPGSSVKVSCKASGGTFSSYAITWVRQAPGQGLEWMGGIIGMFGSTNYAQNFQGRVTITADESTSTAYMELSSLRSEDTAVYYCARSTGYYPAYLHHWGQGTLVTVSS
VL: B1 VL with A8R, A9S, I18V, E52D, N55K, S61P, N62D, Y99H
B5: CR6307 (antibody, V domains shown)
VH: QVQLVQSGGGLVKPGGSLRLSCAASGFTFSSYSMNWVRQAPGKGLEWVSSISSSSSYIYYVDSVKGRFTISRDNAKNSLYLQMNSLRAEDTAVYYCARGGGSYGAYEGFDYWGQGTLVTVSS
VL: EIVLTQSPGTLSLSPGERATLSCRASQRVSSYLAWYQQKPGQAPRLLIYGASTRAAGIPDRFSGSGSGTDFTLTISRLEPEDSAVYYCQQYGRTPLTFGGGTKVEIKR
B6: CR6323 (antibody, V domains shown)
VH: B4 VH with Q1E, M2V, Q6E, A33G, T35S, G50D, V68L, T100S, H108P
VL: not shown
B7: CR6325 (antibody, V domains shown)
VH: EVQLVESGAEVKKPGSSVKVSCKASGGTFSFYSMSWVRQAPGQGLEWMGGIIPMFGTTNYAQKFQGRVTITAVESTSTAYMEVSSLRSEDTAVYYCARGDKGIYYYYMDVWGKGTTVTVSS
VL: B1 VL with A9S, Y99L
B8: CR6328 (antibody, V domains shown)
VH: EVQLVESGAEVKKPGSSVKVSCKASGHIFSGYAISWVRQAPGQGLEWMGGIIPIFGTTNYAQKFQGRVTITADQSTSTAYMDLSNLRSEDTAVYYCARVKDGYCTLTSCPVGWYFDLWGRGTLVTVSS
VL: not shown
B9: CR6332 (antibody, V domains shown)
VH: QVQLVQSGAEVKKPGSSVKVSCKASGGPFRNFAINWVRQAPGQGLEWMGGIIAVFGTTKYAHKFQGRVTITADDSTNTAYMELGSLKSEDTAVYYCARGPHYYSSYMDVWGEGTTVTVSS
VL: DIQLTQSPSSLSASVGDRVTITCRASQGISTYLAWYQQKPGKVPKLLIYAASTLQSGVPSRFSGSGSGTDFTLTISSLQPEDVATYYCQKYNSAPSFGPGTKVDIKR
B10: CR6334 (antibody, V domains shown)
VH: EVQLVETGAEVKKPGSSVKVPCKSSGSPFRSNAVSWVRQAPGQGLEWVGGILGVFGSPSYAQKFQGRVTITADESTNTVHMELRGLRSEDTAVYYCARGPTYYYSYMDVWGKGTTVTVSS
VL: SYVLTQPPSESVAPGQTARITCGGNNIGRNSVHWYQQKPGQAPVLVVYDDSDRPSGIPERFSGSKSGNTATLIISRVEVGDEADYYCQVWHSSSDHYVFGTGTKVTVLG
B11: CR6336 (antibody, V domains shown)
VH: B3 VH with V2M, M52F, T58A, R84S, R87G, V93M, E105Q
VL: EIVMTQSPGTLSLSPGQRATLSCRASQSVSSSYLAWYQQKPGQAPRLLMYGASSRATGIPDRFSGSGSGTDFTLTISRLEPEDFAVYYCQQYGSSSLTFGGGTKLEIKR
B12: CR6342 (antibody, V domains shown)
VH: QVQLVQSGAEVKKPGSSVKVSCKASGGFFSSYAISWVRQAPGQGLEWMGGVIPIFRTANYAQNFQGRVTITADEFTSYMELSSLRSDDTAVYYCARLNYHDSGTYYNAPRGWFDPWGQGTLVTVSS
VL: DIQMTQSPDSLAVSLGEKATINCKSSQSILNSSNNKNYLAWYQQKPGQPPKLLIYWASTRESGVPDRFSGSGSGTDFTLTISSLQAEDVAVYYCQQYYSSPPTFGQGTKVEIKR
B13: CR6343 (antibody, V domains shown)
VH: QVQLVQSGAEVKKPGSSVKVSCKASGVTFSYYAMSWVRQAPGQGLEWMGGISPMFGTTTYAQKFQGRVTITADDSTSTAYMEVRSLRSEDTAVYYCARSSNYYDSVYDYWGQGTLVTVSS
VL: B10 VL with S1Q, Y2S, L4V, N25H, R29S, D50N, K65N, I73T, V79A, H91G
B14: CR6344 (antibody, V domains shown)
VH: QVQLVQSGAEVKKPGSSVRVSCKASGSIFRNYAMSWVRQAPGQGLEWMGGIIAIFGTPKYAQKFQGRVTITADESTSTVYMELSGLRSEDTAMYYCARIPHYNFGSGSYFDYWGQGTLVTVSS
VL: TVLTQPPSVSGAPGQRVTISCTGSSSNIGAGYDVHWYQQLPGTAPKLLIYGNSNRPSGVPDRFSGSKSGTSATLGITGLQTGDEADYYCGTWDSSLSAYVFGTGTKVTVLG

Molecular target: recombinant HA, subtype H9 (A/Hong Kong/1073/99 (H9N2)) (influenza A virus A/Hong Kong/1073/99 …)
Assay: ELISA, coated HA, IgG 5 µg/ml

| Binder | OD 492 nm [OD 492 nm] |
| --- | --- |
| B1 | 2.06 |
| B2 | 1.93 |
| B3 | 2.16 |
| B4 | 0.96 |
| B5 | 0.17 |
| B6 | 2.27 |
| B7 | 2.04 |
| B8 | 2.38 |
| B9 | 2.11 |
| B10 | 1.82 |
| B11 | 2.02 |
| B12 | 2.13 |
| B13 | 1.88 |
| B14 | 2.15 |

Molecular target: recombinant HA, subtype H7 (A/Netherlands/219/03 (H7N7)) (influenza A virus A/Netherlands/219/03 …)
Assay: ELISA, coated HA, IgG 5 µg/ml

| Binder | OD 492 nm [OD 492 nm] |
| --- | --- |
| B1 | 0.16 |
| B2 | 0.17 |
| B3 | 0.15 |
| B4 | 0.15 |
| B5 | 0.22 |
| B6 | 0.15 |
| B7 | 0.17 |
| B8 | 0.16 |
| B9 | 0.26 |
| B10 | 0.15 |
| B11 | 0.18 |
| B12 | 0.17 |
| B13 | 0.15 |
| B14 | 0.18 |

Where a chain is given by its changes, count along the chain named.
